{"source": "PubChem BioAssay AID602156", "about": "(GNF / Scripps Winzeler lab, 2011)", "test_system": "P. yoelii liver stage in HepG2-A16-CD81EGFP, imaging", "assay": "exo-erythrocytic parasite development inhibition – imaging, Malaria Box, P. yoelii, HepG2-A16-CD81EGFP, dose response (AID 602156);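 also: infected cells exposed to compound for 48 hours before fixation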", "data": [{"smiles": "CCCN(CCC)[P+](CC)(N(CCC)CCC)N(CCC)CCC", "values": [{"measurement": "IC50", "result": 0.26, "unit": "µM"}]}]}
